Only a part is listed here, and it is no random draw. Activity calls are given as the source filed them. Rule as the data show it: active = inhibition above about 11%; inactive = the rest.
Assay: growth loss of phage-infected E. coli, primary screen, RecBCD inhibitor project, absorbance, with phage, HTS (AID 651602)
Conditions: at 11.9 µM, stronger effect = higher value

**Q.** For `COc1cc(C2NCCC3(OCCO3)C2(C)C)cc(OC)c1OC` (centres undefined), which inhibition is on record?
**A.** inactive: 2.49%

**Q.** Which inhibition does the source give for `CCOP(=O)(Nc1cccc2ccccc12)OCC` here?
**A.** inactive: 0.71%

**Q.** With `COc1cc(C(=O)NCC2(N3CCOCC3)CCCCC2)cc(Cl)c1OC(C)C` as the molecule, how does the inhibition read?
**A.** inactive: 1.29%

**Q.** For `O=[As](O)(O)c1cccnc1`, which inhibition is on record?
**A.** inactive: 3.44%

**Q.** Which inhibition does the source give for `CS(=O)(=O)c1ccc(Cl)c(NC(=O)COC(=O)C(O)(c2ccccc2)c2ccccc2)c1` here?
**A.** inactive: 1.65%

**Q.** For `O=C(OC1CN2CCC1CC2)c1ccc(Cl)cc1` (centres undefined), which inhibition is on record?
**A.** inactive: -0.54%

**Q.** Which inhibition does the source give for `O=[As](O)(c1cccc(O)c1)c1cccc(O)c1` here?
**A.** inactive: 1.38%

**Q.** With `Cc1cccc(OCC(=O)OC2CN3CCC2CC3)c1` (centres undefined) as the molecule, how does the inhibition read?
**A.** inactive: 2.14%

**Q.** For `COc1ccccc1CNC(=O)COC(=O)C(O)(c1ccccc1)c1ccccc1`, which inhibition is on record?
**A.** inactive: -0.55%

**Q.** For `CC1(CBr)Cn2c(nc3ccccc3c2=O)S1` (centres undefined), which inhibition is on record?
**A.** inactive: -0.37%

**Q.** Which inhibition does the source give for `CN(C(=O)Cc1ccc(Cl)c(Cl)c1)[C@@H]1CCCC[C@H]1N1CCCC1` here?
**A.** inactive: 4.7%

**Q.** Which inhibition does the source give for `CC(C)/C=N\N=C(\N)N[N+](=O)[O-]` here?
**A.** inactive: 3.01%

**Q.** Which inhibition does the source give for `CN(C(=O)Cc1ccc(Cl)c(Cl)c1)C1CCCC[C@@H]1N1CCCC1` (some centres undefined) here?
**A.** inactive: 1.45%

**Q.** Which inhibition does the source give for `CN(CCCl)Cc1cc(Cl)c(NC2=NCCN2)c(Cl)c1` here?
**A.** inactive: 3.03%

**Q.** For `CCOP(=O)(Nc1ccc(C)cn1)OCC`, which inhibition is on record?
**A.** inactive: 0.08%

**Q.** With `CCC1=CC2Cc3nc4ccc(Cl)cc4c(N)c3C(C1)C2` (centres undefined) as the molecule, how does the inhibition read?
**A.** inactive: 1.5%

**Q.** For `O=P1(Nc2ccccn2)COc2ccccc2OC1`, which inhibition is on record?
**A.** inactive: 0.15%

**Q.** With `CCOP(=O)(NC(=NC(C)c1ccccc1)NC(C)c1ccccc1)OCC` (centres undefined) as the molecule, how does the inhibition read?
**A.** inactive: -0.6%

**Q.** Which inhibition does the source give for `Clc1n[nH]nc1-c1nn[nH][15n]1` here?
**A.** inactive: 0.78%

**Q.** For `O=P1(N(CCCl)CCCl)NCCC(C(F)(F)F)O1` (centres undefined), which inhibition is on record?
**A.** inactive: 3.17%

**Q.** Which inhibition does the source give for `CC(C)(C)C(=O)NC(Sc1ncccn1)C(Cl)(Cl)Cl` (centres undefined) here?
**A.** inactive: 0%

**Q.** With `O=P1(Nc2ncccn2)COc2ccccc2OC1` as the molecule, how does the inhibition read?
**A.** inactive: 1.47%

**Q.** With `Cc1ccc(S(=O)(=O)N(CCCN)CCCc2c(C)nc(N)[nH]c2=O)cc1` as the molecule, how does the inhibition read?
**A.** inactive: 2.68%

**Q.** Which inhibition does the source give for `NS(=O)(=O)c1cccc(NC(=O)COC(=O)C(O)(c2ccccc2)c2ccccc2)c1` here?
**A.** inactive: 0.3%

**Q.** With `O=P1(Nc2ccc(Br)cn2)COc2ccccc2OC1` as the molecule, how does the inhibition read?
**A.** inactive: 1.4%

**Q.** For `Cc1ccc(OCC(=O)OC2CN3CCC2CC3)cc1` (centres undefined), which inhibition is on record?
**A.** inactive: 0.48%

**Q.** For `O=[As](O)(c1cccs1)c1cccs1`, which inhibition is on record?
**A.** inactive: 0.08%

**Q.** For `Nc1cccc([As](=O)(O)c2ccccc2)c1`, which inhibition is on record?
**A.** inactive: 2.3%

**Q.** Which inhibition does the source give for `Cc1nn(-c2ccccc2)c2c1P(=O)(N1CCOCC1)N(C)C(c1ccccc1)=N2` (centres undefined) here?
**A.** inactive: 1.25%

**Q.** With `Cc1ccc(C(=O)OC2CN3CCC2CC3)cc1` (centres undefined) as the molecule, how does the inhibition read?
**A.** inactive: 3.99%

**Q.** With `CC1CCC(C(C)C)C(OP(=O)(Nc2ccccn2)c2ccccc2)C1` (centres undefined) as the molecule, how does the inhibition read?
**A.** inactive: 2.39%

**Q.** For `O=C(/C=C/c1ccccc1)OC1CN2CCC1CC2` (centres undefined), which inhibition is on record?
**A.** inactive: 4.07%

**Q.** For `CCCC1OP(=O)(Nc2ccccc2)OCC1CC` (centres undefined), which inhibition is on record?
**A.** inactive: 1.79%

**Q.** With `CN(C)C1(CNC(=O)c2ccc(S(C)(=O)=O)cc2)CCCCC1` as the molecule, how does the inhibition read?
**A.** inactive: 0.91%

**Q.** Which inhibition does the source give for `CCOC(=O)Nc1cccc([As](=O)(O)O)c1` here?
**A.** inactive: 2.86%

**Q.** With `O=[N+]([O-])c1ccc(Nc2ccc(Oc3ccc([N+](=O)[O-])cc3[N+](=O)[O-])cc2)c([N+](=O)[O-])c1` as the molecule, how does the inhibition read?
**A.** inactive: -1.67%

**Q.** For `Cc1cc(SC(NC=O)C(Cl)(Cl)Cl)ncn1` (centres undefined), which inhibition is on record?
**A.** inactive: 4.46%

**Q.** Which inhibition does the source give for `O=P(Nc1ccccn1)(c1cccc2ccccc12)c1cccc2ccccc12` here?
**A.** inactive: 2.14%

**Q.** Which inhibition does the source give for `CC1CCNP(=O)(N(CCCl)CCCl)O1` (centres undefined) here?
**A.** inactive: -1.25%

**Q.** Which inhibition does the source give for `O=C(O)C(O)c1ccc(N(CCCl)CCCl)cc1` (centres undefined) here?
**A.** inactive: 0.23%

**Q.** Which inhibition does the source give for `CCOC(=O)Nc1ccc([As](=O)(O)O)c(O)c1` here?
**A.** inactive: 3.75%

**Q.** With `CCCCOc1ccc(C(=O)NCC2(N3CCCCC3)CCCCC2)cc1OC` as the molecule, how does the inhibition read?
**A.** inactive: 2%

**Q.** With `Cc1cc(SC(NC(=O)c2ccccc2)C(Cl)(Cl)Cl)nc(C(C)C)n1` (centres undefined) as the molecule, how does the inhibition read?
**A.** inactive: 1.48%

**Q.** Which inhibition does the source give for `COP(=O)(OC)N1CC1c1ccccc1` (centres undefined) here?
**A.** inactive: 1.32%

**Q.** Which inhibition does the source give for `CCOC(=O)c1ccc(NC(=O)C(C)(CCl)SC)cc1` (centres undefined) here?
**A.** inactive: 0.62%

**Q.** For `O=C(OC1CN2CCC1CC2)c1cccc([N+](=O)[O-])c1` (centres undefined), which inhibition is on record?
**A.** inactive: 1.28%

**Q.** Which inhibition does the source give for `CCC(C)N(CC(C)C)C(=S)SC(NC(C)=O)C(Cl)(Cl)Cl` (centres undefined) here?
**A.** inactive: 9.58%

**Q.** For `COP1(=S)c2c(C)nn(CCC#N)c2N=C(c2ccc(F)cc2)N1C` (centres undefined), which inhibition is on record?
**A.** inactive: 0.93%

**Q.** Which inhibition does the source give for `COC(=O)C1(C)COP(=O)(N2CCCC2)OC1` (centres undefined) here?
**A.** inactive: 1.61%

**Q.** For `O=C(COc1ccccc1)OC1CN2CCC1CC2` (centres undefined), which inhibition is on record?
**A.** inactive: 0%

**Q.** Which inhibition does the source give for `O=C(Nc1ccncc1[N+](=O)[O-])c1ccc([N+](=O)[O-])cc1[N+](=O)[O-]` here?
**A.** inactive: -1.35%

**Q.** Which inhibition does the source give for `O=C(O)C(=O)c1ccc(N(CCCl)CCCl)cc1` here?
**A.** inactive: 3.03%

**Q.** With `COc1ccc(N/C(=N/P(=O)(N2CCOCC2)N2CCOCC2)N2CCOCC2)cc1` as the molecule, how does the inhibition read?
**A.** inactive: 0.85%

**Q.** For `O=[N+]([O-])c1cc(Oc2ccc([N+](=O)[O-])cc2C(F)(F)F)cc([N+](=O)[O-])c1`, which inhibition is on record?
**A.** inactive: 2.19%

**Q.** Which inhibition does the source give for `O=C(OC1CN2CCC1CC2)C12CC3CC(CC(C3)C1)C2` (centres undefined) here?
**A.** inactive: 2.36%

**Q.** With `Cc1cc(=O)[nH]c(N[N+](=O)[O-])n1` as the molecule, how does the inhibition read?
**A.** inactive: 5.7%

**Q.** With `Cc1c2c(nc3ccccc13)SC(C(Cl)Cl)C2` (centres undefined) as the molecule, how does the inhibition read?
**A.** inactive: 4.94%

**Q.** Which inhibition does the source give for `COc1ccc2nc(NP(=O)(c3ccccc3)c3ccccc3)sc2c1` here?
**A.** inactive: 2.73%

**Q.** Which inhibition does the source give for `COc1cc(I)ccc1[As](=O)(O)O` here?
**A.** inactive: 0.61%

**Q.** With `O=P1(N(CCCl)CCCl)Nc2ccccc2N1` as the molecule, how does the inhibition read?
**A.** inactive: 0.08%

**Q.** With `O=P1(N(CCCl)CCCl)OCCCN1CCCl` (centres undefined) as the molecule, how does the inhibition read?
**A.** inactive: 2.73%

**Q.** With `CC(C)c1ccc(OP(=O)(Nc2ccccn2)Oc2ccccc2F)cc1` (centres undefined) as the molecule, how does the inhibition read?
**A.** inactive: 3.28%

**Q.** Which inhibition does the source give for `COC(=O)C1(C)COP(=O)(N2CCCCCC2)OC1` (centres undefined) here?
**A.** inactive: 2.33%

**Q.** For `ClCCSc1nnc(-c2cccnc2)o1`, which inhibition is on record?
**A.** inactive: 3.71%

**Q.** For `CCN(CC)C(=S)SC(NC=O)C(Cl)(Cl)Cl` (centres undefined), which inhibition is on record?
**A.** inactive: 3.02%

**Q.** With `O=C(OC1CN2CCC1CC2)c1cccc2[nH]cnc12` (centres undefined) as the molecule, how does the inhibition read?
**A.** inactive: -0.31%

**Q.** Which inhibition does the source give for `CC(C)NC(=O)NP(=O)(Oc1ccccc1)Oc1ccccc1` here?
**A.** inactive: 2.48%

**Q.** For `O=[As](O)(c1ccc(O)cc1)c1ccccc1O`, which inhibition is on record?
**A.** inactive: 2.31%

**Q.** Which inhibition does the source give for `C[As](=O)(O)c1cccc(C(=O)O)c1` here?
**A.** inactive: 0.8%

**Q.** Which inhibition does the source give for `COc1cc(C(=O)NCC2(N3CCOCC3)CCCCC2)ccc1OCC(C)C` here?
**A.** inactive: -0.31%

**Q.** With `O=[N+]([O-])c1ccc(-c2cc([N+](=O)[O-])c(O)c([N+](=O)[O-])c2)cc1` as the molecule, how does the inhibition read?
**A.** inactive: 1.09%

**Q.** With `Cc1ccc2nc3c(c(C)c2c1)CC(C(Cl)Cl)S3` (centres undefined) as the molecule, how does the inhibition read?
**A.** inactive: 1.84%

**Q.** Which inhibition does the source give for `Cc1ccc(OP(=O)(Nc2ccc([N+](=O)[O-])cn2)Oc2ccc(C)cc2)cc1` here?
**A.** inactive: -2.15%

**Q.** For `[N-]=[N+]=NC1CCCCC1NC(=O)c1cc([N+](=O)[O-])cc([N+](=O)[O-])c1` (centres undefined), which inhibition is on record?
**A.** inactive: 2.45%

Reference: PubChem BioAssay AID651602 (The Scripps Research Institute Molecular Screening Center, 2012)
